Data on 1 compound can be found in US20200267989A1, “PARASITE TREATMENT COMPOUND” (University of Maine System Board of Trustees, priority 2017, published 2020).

“And” between values parts separate entries of the source, which are not always exact repeats. Identical values can stand only once. The amount applied is not stated for every result.

The test system of this data set is sea lice. The experiment in a line: Pilot laboratory trial: KCl pre-treatment plus mechanical devices for removal of sea lice from Atlantic salmon. Type of data set: in vivo. How it is done:
A pilot laboratory trial was run using various forms of mechanical devices for removal of sea lice from Atlantic salmon (ATS). The effectiveness of the mechanical devices at removing/detaching lice was measured with and without KCl pretreatment, and the results compared.
The experiment consisted of testing 3 mechanical devices on lice infested Atlantic salmon (ATS) in seawater and then on lice infested Atlantic salmon that had been pre-treated in seawater with KCL at 4 part per thousand (PPT) or 2 PPT for 5 or 15 minutes. The mechanical treatment referred to as Treatment A in Table 1 was a water spray apparatus including multiple jets in a roughly circular arrangement, and treatments B and C in Table 1 were alternative mechanical treatments. Each treatment group was run separately with two fish were staggered by 15 minutes to facilitate counting lice, except for Treatment C as both fish were placed together. The treatment groups were as follows: • 1) Treatment A with seawater (2 fish) • 2) Treatment A with sea water plus KCL 4 PPT, 15 minutes (2 fish) • 3) Treatment B with seawater (2 fish) • 4) Treatment B with sea water plus KCL 4 PPT, 15 minutes (2 fish) • 5) Treatment A with seawater plus 2PPT, 15 minutes (1 fish) • 6) Treatment A with sea water plus KCL 4 PPT, 5 minutes (1 fish) • 7) Treatment C with seawater (2 fish) • 8) Treatment C sea water plus KCL 2 PPT (2 fish)
Each treatment group was performed essentially as follows:
Pre-Treatment before Treatment A, B, or C • 1) Take 1 fish and transfer it to Tank 1 (70 liter tank); • 2) Take 1 fish and transfer it to Tank 2, staggered (70 liter tank); • 3) Both tanks will be filled with seawater for Round 1 of a treatment group and seawater and KC1 4PPT X for Round 2 for a treatment; • 4) Fish swim around freely in treatment Tank 1 for 30 minutes; • 5) Fish swim around freely in treatment Tank 2 for 30 minutes;
Evaluation of Pretreatment: • 1) Remove Fish from Tank 1; • 2) Place 1 Fish in Sedation Tank; • 3) Count detached lice in Tank 1; • 4) Remove 1 Fish from Sedation Tank; • 5) Count numbers of Lice on each fish (making sure to differentiate between the two tanks); • 6) Repeat for staggered Tank 2.
Perform Mechanical Treatment: • 1) Pass fish through mechanical treatments (A, B or C) • 2) Count lice on fish

As for `[Cl-].[K+]` [KCl, potassium chloride], the “Sealice counts: Total” value is 115 (Mechanical Treatment A, KCl 2 PPT in seawater, treatment time 15 min); 145 (Mechanical Treatment A, KCl 4 PPT in seawater, treatment time 5 min); 108 and 116 (Mechanical Treatment A, KCl 4 PPT in seawater, treatment time 15 min); 96 and 91 (Mechanical Treatment B, KCl 4 PPT in seawater, treatment time 15 min).
